Measured values from several laboratories, pooled; numbers as filed in NIAID ChemDB.

All rows: whole-cell or culture tests; organism: Human cytomegalovirus; read-out: EC50

ECn: concentration that inhibits the pathogen or its effect by n%. Lines come from different laboratories, so protocols vary.

O=C(NCc1ccc(Cl)cc1)c1c[nH]c2c(F)cc(CCCO)cc2c1=O ; strain: AD169 ; method: plaque count ; result: 0.7 µM
CN(C)c1cccc2c(S(=O)(=O)Nc3ccc(NC(=O)C(C)(C)CO)cc3)cccc12 ; strain: 8 strains ; method: plaque count ; result: 1.17 µM
Cc1nc(NC2Cc3cccc(F)c3C2)nc(-n2ccnc2)c1[N+](=O)[O-] ; result: 0.125 µM
CNc1cccc2c(S(=O)(=O)Nc3ccc(NC(=O)C(C)(C)CF)cc3)cccc12 ; strain: Ganciclovir-resistant ; method: plaque count ; result: 3.4 µM
COc1cccc(N2CCN(C3=Nc4c(F)cccc4[C@H](CC(=O)O)N3c3cc(C(F)(F)F)ccc3OC)CC2)c1 ; strain: Clinical isolate 3 ; method: plaque count ; result: 0.0015 µM
Cc1cc(C)cc(Cn2c(=O)ccn(CC(F)(F)F)c2=O)c1 ; strain: AD169 ; result: >640 µM
Nc1nc2c(ncn2COC(CO)CO)c(=O)[nH]1 ; strain: VR4991 (ganciclovir-resistant) ; method: plaque count ; result: 25 µM
Cc1nc(NC2CCc3c(F)ccc(F)c32)nc(-n2ccnc2C)c1[N+](=O)[O-] ; result: 0.06 µM
Nc1nc2c(ncn2COC(CO)CO)c(=O)[nH]1 ; strain: R56 ; method: virus yield ; result: <2.9 µM
Cc1cc(C)cc(Cn2c(=S)ccn(Cc3cccnc3)c2=O)c1 ; strain: AD169 ; result: >59 µM
CN(C)c1cccc2c(S(=O)(=O)Nc3ccc(NC(=O)C(C)(C)CO)cc3)cccc12 ; strain: DAVIS ; method: plaque count ; result: 0.52 µM
Cc1nc(N2CCCC2)nc(-n2ccnc2)c1[N+](=O)[O-] ; result: 0.093 µM
O=C(NCc1ccc(Cl)cc1)c1c[nH]c2ccc(CCCO)cc2c1=O ; strain: SAL ; method: plaque count ; result: 0.7 µM
Cc1nc(N[C@H]2CCOC[C@@H]2C)nc(-n2ccnc2)c1[N+](=O)[O-] ; result: 0.13 µM
Cc1cc(C)cc(Cn2c(SCC#N)nccc2=S)c1 ; strain: AD169 ; result: >1.7 µM
CC(C)=CCn1c(=O)sc2c(=O)[nH]c(N)nc21 ; strain: AD169 ; method: plaque count ; result: 16 µM
Cc1cc(C)cc(Cn2c(=S)ccn(Cc3cccc(Cl)c3)c2=O)c1 ; strain: AD169 ; result: >140 µM
O=C(NCc1ccc(Cl)cc1)c1c[nH]c2ccc(CCCO)cc2c1=O ; strain: GDGrP53 ; method: plaque count ; result: 0.2 µM

Repeating the final 2 entries:

{"SMILES": "Cc1cc(C)cc(Cn2c(=S)ccn(Cc3cccc(Cl)c3)c2=O)c1", "strain": "AD169", "result": ">140 µM"}
{"SMILES": "O=C(NCc1ccc(Cl)cc1)c1c[nH]c2ccc(CCCO)cc2c1=O", "strain": "GDGrP53", "method": "plaque count", "result": "0.2 µM"}